Reference: ChEMBL document CHEMBL1759992, “Antidotes to anthrax lethal factor intoxication. Part 2: structural modifications leading to improved in vivo efficacy” (Bioorg Med Chem Lett, 2011)

System: Rattus norvegicus
Experiment: Inhibition of lethal factor-induced toxicity in Fischer 344 rat assessed as increase in median survival time at 5 mg/kg, iv followed by administration of 10 ug lethal toxin after 20 to 30 mins of compound dosing relative to control

Structure (SMILES)	fold change (FC)
Cc1cc(N[C@H](CCCCNCCCc2ccc(F)cc2)C(=O)NO)cc(C)c1F	2
Cc1cc(CNCCCC[C@@H](Oc2ccc(F)c(C)c2)C(=O)NO)ccc1F	1.3
Cc1cc(O[C@H](CCCCNCc2ccc(F)cc2)C(=O)NO)cc(C)c1F	2.9
Cc1cc(O[C@H](CCCCCNCc2ccc(F)cc2)C(=O)NO)cc(C)c1F	1.4
Cc1cc(O[C@H](CCCCNCc2ccc(Cl)cc2)C(=O)NO)cc(C)c1F	1.3
Cc1cc(O[C@H](CCCCCNCCc2ccc(F)cc2)C(=O)NO)cc(C)c1F	1.1
Cc1cc(N[C@H](CCCCNCc2ccc(F)cc2)C(=O)NO)cc(C)c1F	17
Cc1cc(C[C@H](CCCCNCc2ccc(F)cc2)C(=O)NO)cc(C)c1F	13.6
CO[C@H](C[C@H](CCCCCNCc1ccc(F)cc1)C(=O)NO)c1ccc(F)cc1	1.4
O=C(NO)[C@@H](CCCCNCc1ccc(F)cc1)Nc1ccc(F)c(Cl)c1	1.4
Cc1cc(CNCCCC[C@@H](Cc2cc(C)c(F)c(C)c2)C(=O)NO)ccc1F	7.8
Cc1cc(CNCCCC[C@@H](Nc2ccc(F)c(C)c2)C(=O)NO)ccc1F	5.8
CO[C@H](C[C@H](CCCCCNCCc1ccc(F)cc1)C(=O)NO)c1ccc(F)cc1	1.3
CO[C@H](C[C@H](CCCCNCc1ccc(F)c(C)c1)C(=O)NO)c1ccc(F)cc1	5

System: Rattus norvegicus
Experiment: Inhibition of lethal factor-induced toxicity in Fischer 344 rat assessed as increase in median survival time at […], iv followed by administration of 10 ug lethal toxin after 20 to 30 mins of compound dosing relative to control

Structure (SMILES)	FC
Cc1cc(CNCCCC[C@@H](Nc2cc(C)c(F)c(C)c2)C(=O)NO)ccc1F	4.2
CO[C@H](C[C@H](CCCCNCc1ccc(F)cc1)C(=O)NO)c1ccc(F)cc1	5
